Results deposited as PubChem BioAssay AID1259414 (Drosophila RNAi Screening Center, 2018)
Aim: 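Host factors increasing or decreasing Wolbachia levels in cultured fly cells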 (primary screen). Cell system: Drosophila JW18 cells infected with Wolbachia. Reagents: long dsRNA against Drosophila genes, 0.25 µg dsRNA per well of a 384-well plate. Time to read-out: 5 days. Conditions: cells persistently infected with Wolbachia before knock-down; no added drug. Read-out: 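Automated imaging of bacterial rRNA staining divided by host cell count, reported as plate-normalised robust z-score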. Scale: Wolbachia per cell robust z: higher = more Wolbachia per host cell than the plate typical. Active means: 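Active if absolute robust z reaches 1.5 in two or more of three replicates, leaving out multi- or no-target dsRNAs, genes unexpressed in JW18 and A1 wells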.
In all, the deposit lists about 24,000 reagents; below is an unselected part of those with a known target gene and a result. In the full data, about 1,210 (5%) are marked active. 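Inactive calls also include excluded dsRNAs with several or no targets, genes unexpressed in JW18, and well A1, regardless of score.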 Names joined by + are all predicted targets of the reagent.

CG33995 + CG44001 + CG44000 [DRSC00853]: Wolbachia per cell robust z, rep 1 = 0.801; Wolbachia per cell robust z, rep 2 = 0.553; Wolbachia per cell robust z, rep 3 = 0.612; call = inactive
CG12065 (GeneID 31798) [DRSC17798]: Wolbachia per cell robust z, rep 1 = 0.831; Wolbachia per cell robust z, rep 2 = 0.467; Wolbachia per cell robust z, rep 3 = -0.468; call = inactive
CG12065 (GeneID 31798) [DRSC17799]: Wolbachia per cell robust z, rep 1 = 0.555; Wolbachia per cell robust z, rep 2 = -2.93; Wolbachia per cell robust z, rep 3 = 0.555; call = inactive
S-Lap8 (GeneID 36844) [DRSC06870]: Wolbachia per cell robust z, rep 1 = -0.536; Wolbachia per cell robust z, rep 2 = -0.727; Wolbachia per cell robust z, rep 3 = -1.31; call = inactive
S-Lap8 (GeneID 36844) [DRSC21372]: Wolbachia per cell robust z, rep 1 = 0.0398; Wolbachia per cell robust z, rep 2 = -0.353; Wolbachia per cell robust z, rep 3 = -1.21; call = inactive
S-Lap8 (GeneID 36844) [DRSC29560]: Wolbachia per cell robust z, rep 1 = 0.677; Wolbachia per cell robust z, rep 2 = 1.39; Wolbachia per cell robust z, rep 3 = 1.19; call = inactive

Records above whose gene name begins with S or s:
S-Lap8 (GeneID 36844) [DRSC06870]: Wolbachia per cell robust z, rep 1 = -0.536; Wolbachia per cell robust z, rep 2 = -0.727; Wolbachia per cell robust z, rep 3 = -1.31; call = inactive
S-Lap8 (GeneID 36844) [DRSC21372]: Wolbachia per cell robust z, rep 1 = 0.0398; Wolbachia per cell robust z, rep 2 = -0.353; Wolbachia per cell robust z, rep 3 = -1.21; call = inactive
S-Lap8 (GeneID 36844) [DRSC29560]: Wolbachia per cell robust z, rep 1 = 0.677; Wolbachia per cell robust z, rep 2 = 1.39; Wolbachia per cell robust z, rep 3 = 1.19; call = inactive

The listing continues.
nw (GeneID 3772015) [DRSC06451]: Wolbachia per cell robust z, rep 1 = -3.2; Wolbachia per cell robust z, rep 2 = -0.634; Wolbachia per cell robust z, rep 3 = -2.86; call = inactive
nw (GeneID 3772015) [DRSC06749]: Wolbachia per cell robust z, rep 1 = 0.417; Wolbachia per cell robust z, rep 2 = 0.419; Wolbachia per cell robust z, rep 3 = -0.39; call = inactive
nw (GeneID 3772015) [DRSC06896]: Wolbachia per cell robust z, rep 1 = -1.74; Wolbachia per cell robust z, rep 2 = -0.315; Wolbachia per cell robust z, rep 3 = -2.66; call = inactive
nw (GeneID 3772015) [DRSC25619]: Wolbachia per cell robust z, rep 1 = 0.175; Wolbachia per cell robust z, rep 2 = -0.107; Wolbachia per cell robust z, rep 3 = -12.3; call = inactive
nw (GeneID 3772015) [DRSC29422]: Wolbachia per cell robust z, rep 1 = -0.64; Wolbachia per cell robust z, rep 2 = -0.319; Wolbachia per cell robust z, rep 3 = -1.29; call = inactive
CG10417 (GeneID 35492) [DRSC04846]: Wolbachia per cell robust z, rep 1 = -2.11; Wolbachia per cell robust z, rep 2 = 0.121; Wolbachia per cell robust z, rep 3 = 0.387; call = inactive
CG10417 (GeneID 35492) [DRSC27173]: Wolbachia per cell robust z, rep 1 = -1.34; Wolbachia per cell robust z, rep 2 = -1.65; Wolbachia per cell robust z, rep 3 = -5.81; call = active
CG13622 (GeneID 42923) [DRSC14624]: Wolbachia per cell robust z, rep 1 = -0.616; Wolbachia per cell robust z, rep 2 = -0.893; Wolbachia per cell robust z, rep 3 = 0.45; call = inactive
CG13622 (GeneID 42923) [DRSC27082]: Wolbachia per cell robust z, rep 1 = 0.296; Wolbachia per cell robust z, rep 2 = 0.0389; Wolbachia per cell robust z, rep 3 = 0.429; call = inactive
CR32010 + CR32011 + CR32009 + 1 more [DRSC21664]: Wolbachia per cell robust z, rep 1 = 0.867; Wolbachia per cell robust z, rep 2 = 0.614; Wolbachia per cell robust z, rep 3 = -0.887; call = inactive
